Experimental data: PubChem BioAssay AID1259414 (Drosophila RNAi Screening Center, 2018)

Screen: 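Fly genes that alter Wolbachia amount inside host cells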 (primary screen)
Cell system: Drosophila JW18 cells infected with Wolbachia
Knock-down reagent: long dsRNA against Drosophila genes, 0.25 µg dsRNA per well of a 384-well plate
Duration: 5 days
Treatment: cells persistently infected with Wolbachia before knock-down; no added drug
Measurement: 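Imaged fluorescence in situ signal for Wolbachia 23S rRNA per DAPI-counted host cell, given as a robust z-score within each plate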
Reading the numbers: Wolbachia per cell robust z: higher = more Wolbachia per host cell than the plate typical
Call rule: 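Active if absolute robust z reaches 1.5 in two or more of three replicates, leaving out multi- or no-target dsRNAs, genes unexpressed in JW18 and A1 wells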
The screen tested about 24,000 reagents; below is a random part of those that have a named target and a result. In the full data, about 1,210 (5%) are marked active. 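Inactive calls also include excluded dsRNAs with several or no targets, genes unexpressed in JW18, and well A1, regardless of score.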 Names joined by + are all predicted targets of the reagent.

target	dsRNA	Wolbachia per cell robust z, rep 1	Wolbachia per cell robust z, rep 2	Wolbachia per cell robust z, rep 3	call
CG13606 (GeneID 42873)	DRSC14609	0.148	0.805	-0.386	inactive
Aos1 (GeneID 41532)	DRSC14113	0.843	-0.126	-0.313	inactive
Aos1 (GeneID 41532)	DRSC29634	1.2	1	1.14	inactive
Syt4 (GeneID 40876)	DRSC12606	-0.138	0.825	-0.123	inactive
asRNA:CR42738 + CG14610	DRSC12554	0.0961	-3.34	-1.96	inactive
frj (GeneID 33900)	DRSC03250	-0.477	1.1	-2.31	inactive
bi (GeneID 31379)	DRSC18742	-2.97	0.751	-0.104	inactive
bi (GeneID 31379)	DRSC28848	-0.234	0.184	0.347	inactive
bi (GeneID 31379)	DRSC38941	-0.785	-1.38	0.967	inactive
bi (GeneID 31379)	DRSC40760	-0.00475	-0.23	0.573	inactive
CG34377 (GeneID 42608)	DRSC13559	-1.17	-2.15	-1.47	inactive
CG34377 (GeneID 42608)	DRSC14708	-5.43	-1.47	-1.11	inactive
CG34377 (GeneID 42608)	DRSC14709	0.497	-0.335	-0.15	inactive
CG34377 (GeneID 42608)	DRSC14710	0.21	0.501	0.319	inactive
CG34377 (GeneID 42608)	DRSC14711	-3.94	0.618	-0.725	inactive
Vps60 (GeneID 39964)	DRSC10610	0.434	0.603	1.01	inactive
HP1b (GeneID 31834)	DRSC18418	0.181	0.556	0.136	inactive
HP1b (GeneID 31834)	DRSC29826	-0.327	0.0612	0.307	inactive
Sms (GeneID 39403)	DRSC10408	0.361	-0.589	-0.503	inactive
alphaKap4 (GeneID 38675)	DRSC09823	-4.99	1.2	0.166	inactive
CG43237 (GeneID 12798327)	DRSC40520	-1.5	-1.39	-2.85	inactive
CG14346 (GeneID 33325)	DRSC00376	0.344	-0.769	-1.36	inactive
CG14346 (GeneID 33325)	DRSC27555	0.673	1.73	0.29	inactive
Pmi + PGRP-LD + Cralbp	DRSC09743	0.134	-1.51	-2.78	inactive
CG12853 (GeneID 50220)	DRSC06193	-3.18	-4.63	0.61	inactive
CG12853 (GeneID 50220)	DRSC27193	-1.07	0.389	0.0254	inactive
CG9109 (GeneID 33844)	DRSC03139	-0.822	-9.88	-0.689	inactive
CG9109 (GeneID 33844)	DRSC26398	1.95	-0.361	-1.07	inactive

Targets listed so far whose target name begins with H or h:
target	dsRNA	Wolbachia per cell robust z, rep 1	Wolbachia per cell robust z, rep 2	Wolbachia per cell robust z, rep 3	call
HP1b (GeneID 31834)	DRSC18418	0.181	0.556	0.136	inactive
HP1b (GeneID 31834)	DRSC29826	-0.327	0.0612	0.307	inactive
